Compound potency records, mixed from different reports. Data source: NIAID ChemDB in PubChem.

Common to all: growth or infection tests; agent: Varicella zoster virus; measure: EC50

An empty or dashed field is not shown. Neighbouring rows are from separate reports. ECn: concentration that inhibits the pathogen or its effect by n%.

| SMILES | strain | cells | method | value |
|---|---|---|---|---|
| Nc1ncnc2c1ncn2C[C@@H](CO)OCP(=O)(O)O | Oka PFA-resistant/B | HEL | cytopathic effect | 0.148 µM |
| C=Cc1cn([C@@H]2O[C@H](CO)[C@@H](O)[C@@H]2O)c(=O)[nH]c1=O | Kawaguchi | - | plaque count | 0.9155 µg/mL |
| CCCCCc1ccc(-c2cc3cn(C4C[C@H](F)[C@@H](CO)O4)c(=O)nc3o2)cc1 | OKA | - | - | >2 µM |
| Cc1cn([C@@H]2O[C@H](CO)[C@@H](O)[C@@H]2O)c(=O)[nH]c1=O | Kawaguchi | - | plaque count | 0.153 µg/mL |
| Nc1nc2c(ncn2COC(CO)CO)c(=O)[nH]1 | Oka CF1743-resistant | HEL | cytopathic effect | 2.8 µM |
| Nc1ncnc2c1ncn2[C@@H]1O[C@H](CO)[C@@H](O)[C@@H]1O | VEX411 | HEF | cytopathic effect | 2.5 µg/mL |
| O=C(NCc1ccc(Cl)cc1)c1c[nH]c2c(F)cccc2c1=O | COH | - | plaque count | 2.3 µM |
| Nc1ccn(C[C@@H](CO)OCP(=O)(O)O)c(=O)n1 | Oka CF1603-resistant | HEL | cytopathic effect | 0.15 µM |
| Cn1cc(C(=O)NCc2ccc(Cl)cc2)c(=O)c2cc(CN3CCOCC3)ccc21 | DI varicella isolate | HFF | plaque count | 0.2 µM |
| O=c1[nH]c(=O)n([C@H]2C[C@H](O)[C@@H](CO)O2)cc1/C=C/I | HIRAI | HEF | plaque count | 0.0017 µg/mL |
| Cc1cn([C@@H]2O[C@H](CO)[C@@H](O)[C@@H]2O)c(=S)nc1N | CAQU (TK+) | MRC-5 | plaque count | 121 µM |
| O=c1[nH]c(=O)n([C@H]2C[C@H](O)[C@@H](CO)O2)cc1/C=C/Br | Ohtomo | HEF | plaque count | 0.0012 µg/mL |
| Nc1nc2c(ncn2CCC(CO)CO)c(=O)[nH]1 | Clinical isolate VZV-25 | HEL | cytopathic effect | 3.54 µM |
| O=c1[nH]c(=O)n([C@H]2C[C@H](O)[C@@H](CO)O2)cc1I | OKA | HEF | plaque count | 0.43 µg/mL |
| O=C(O)P(=O)(O)O | Clinical isolate VZV-31 | HEL | cytopathic effect | 72.9 µM |